The results in this text go back to patent US20100216659A1.

For the assay, the target named is TJ7.15 phage-fragment clone (WNWFDIT) (HIV-1 (HXB2 or SF162 isolate library)). The assay can be described thus: flow cytometry, yeast-displayed scFv with different TJ7.15 phage preparations.

In turn, yeast-displayed Z13e1 scFv displayed a % double positive cells of 40%.
